Growth rescue data for 51 compounds are collected here from PubChem BioAssay AID504582 (Broad Institute, 2011).

The entries are a selection whose mix differs from that of the whole data set. Some salts or complexes appear as unconnected parts, following the source record. Calls of active or inactive are those of the source. Rule as the data show it: active = growth rescue above about 28% (passing the limit was not always enough); inconclusive = no clear call, values can overlap the other calls.

The nature of the assay: rescue of yeast from PfHsp40 toxicity, primary screen, S. cerevisiae, ATP luminescence (AID 504582).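 Also: yeast W303a lacking pdr1 and pdr3 grown in galactose medium; growth measured after three days at 30 °C.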 The following applies: S. cerevisiae expressing PfHsp40, growth rescue, at 12.5 µM, hits give high values.
As for `COc1ccc(OP(C)(=O)Nc2ccc(SC(F)(F)F)cc2)cc1` (stereo unspecified), the growth rescue is inactive: -0.427%.

Take `CCOC(=O)c1ccc(NP(C)(=O)Oc2ccc(F)cc2)cc1` (stereo unspecified): the growth rescue is inactive: -0.0685%.

As for `COc1ccc2c(c1O)-c1c(O)c(OC)cc3c1[C@H](C2)[N+](C)(C)CC3.O=[N+]([O-])c1cc([N+](=O)[O-])c([O-])c([N+](=O)[O-])c1[O-]`, the growth rescue is inactive: -1.15%.

With `O=C(OCCN1CCN(CCOCc2ccccc2)CC1)C(O)(c1ccccc1)c1ccccc1`, the growth rescue is inactive: -0.4%.

With `O=C(OC1CN2CCC1CC2)c1ccc([N+](=O)[O-])cc1` (stereo unspecified), the growth rescue was inactive: 0.443%.

As for `CP(=O)(Nc1ccccc1F)Oc1ccccc1` (stereo unspecified), the growth rescue is inactive: 0.229%.

With `CC1=CC2OC3CC4OC(=O)C=CC=CC(=O)OCCC(C)C(O)C(=O)OCC2(CC1)C4(C)C31CO1` (stereo unspecified), the growth rescue was inactive: 5.28%.

Take `Cc1ccccc1NP(C)(=O)Nc1ccccc1C`: the growth rescue is inactive: 0.982%.

With `CP(=O)(Nc1ccc2c(c1)OCCO2)Oc1ccccc1` (stereo unspecified), the growth rescue is inactive: -0.078%.

In the case of `CCOP(C)(=S)SCC(=O)NC(C)(CC)C(=O)O` (stereo unspecified), the growth rescue was inactive: 0.153%.

On to `CP(=O)(Nc1ccc(SC(F)(F)F)cc1)Oc1ccc(F)cc1` (stereo unspecified), for which the growth rescue is inactive: 0.481%.

Take `Cc1c(C(c2ccc3c(c2)OCO3)c2c(C)n(C)n(-c3ccccc3)c2=O)c(=O)n(-c2ccccc2)n1C.O=[N+]([O-])c1cc([N+](=O)[O-])c(O)c([N+](=O)[O-])c1`: the growth rescue is inactive: -0.708%.

For the compound `Cc1cc(-c2cccc3ccccc23)c(C)cn1.O=[N+]([O-])c1cc([N+](=O)[O-])c(O)c([N+](=O)[O-])c1`, the growth rescue was inactive: -3.2%.

In the case of `O=[N+]([O-])c1cc([N+](=O)[O-])c(NCC2CCS(=O)(=O)C2)c([N+](=O)[O-])c1` (stereo unspecified), the growth rescue was inactive: -0.446%.

Take `O=[N+]([O-])c1ccc(OP2(=O)COCCO2)cc1` (stereo unspecified): the growth rescue was inactive: 4.58%.

On to `CC1=CC2OC3CC4OC(=O)C=CC=CC(=O)OCCC(C)C(O)C(=O)OCC2(CC1O)C4(C)C31CO1` (stereo unspecified), for which the growth rescue was inactive: 2.74%.

As to `COc1ccc(NP(C)(=O)Oc2ccccc2OC)cc1` (stereo unspecified), the growth rescue was inactive: 0.225%.

In the case of `CN(C)CCOC(=O)C(O)(c1ccccc1)C1CCCCC1` (stereo unspecified), the growth rescue is inactive: -1.72%.

As to `CN(C)C1(CNC(=O)c2ccc(Cl)c(S(N)(=O)=O)c2)CCCCC1`, the growth rescue was inactive: 0.029%.

Consider `COc1ccc(OP(C)(=O)Nc2cccc(Br)c2)cc1` (stereo unspecified), for which the growth rescue is inactive: 0.459%.

As to `CP(=O)(OC12CC3CC(CC(C3)C1)C2)OC12CC3CC(CC(C3)C1)C2`, the growth rescue was inactive: 0.341%.

`CCOC(=O)c1ccc(NP(C)(=O)Oc2ccc(Cl)cc2)cc1` (stereo unspecified): the growth rescue was inactive: -0.008%.

With `CN(C)C(=O)c1c([N+](=O)[O-])cc([N+](=O)[O-])cc1[N+](=O)[O-]`, the growth rescue was inactive: -1.05%.

Regarding `CP(=O)(Nc1ccc(Cl)cc1)Oc1ccc(F)cc1` (stereo unspecified), the growth rescue was inactive: -1.48%.

Regarding `CC1=CC2OC3CC4OC(=O)/C=C/C=CC(C(C)O)OCC(O)C(C)CC(=O)OCC2(CC1O)C4(C)C31CO1` (stereo unspecified), the growth rescue was inactive: -1.86%.

For `CC(C)(C)c1ccc(OP(C)(=O)O)cc1`, the growth rescue was inactive: 2.68%.

Turning to `COc1ccccc1OP(C)(=O)Nc1ccccc1Br` (stereo unspecified), the growth rescue is inactive: 0.349%.

Consider `CP(=O)(Oc1ccccc1)N1CCOC1=O` (stereo unspecified), for which the growth rescue was inactive: 2.07%.

For the compound `CCc1ccc(OP(C)(=O)Nc2cccnc2)cc1` (stereo unspecified), the growth rescue was inactive: -0.039%.

On to `COc1ccccc1OP(C)(=O)Nc1c(C)n(C)n(-c2ccccc2)c1=O` (stereo unspecified), for which the growth rescue is inactive: 0.009%.

For the compound `O=C(OCCCN1CCCC1)C(O)(c1ccccc1)C1CCCCC1` (stereo unspecified), the growth rescue is inactive: -0.0185%.

For the compound `CCN(CC)CC(O)COC(=O)C(O)(c1ccccc1)C1CCCCC1` (stereo unspecified), the growth rescue is inactive: 0.601%.

Consider `COc1ccc(OP(C)(=O)Nc2ccc(Br)cc2)cc1` (stereo unspecified), for which the growth rescue is inactive: 0.128%.

With `CC(=O)OC[C@]12CCC(C)=C[C@H]1O[C@@H]1[C@H](O)[C@@H](OC(C)=O)[C@@]2(C)[C@]12CO2`, the growth rescue was inactive: 8.81%.

Take `CCc1ccc(OP(C)(=O)O)cc1`: the growth rescue was inactive: -0.075%.

As for `CP(=O)(Nc1ccccn1)Oc1ccccc1` (stereo unspecified), the growth rescue was inactive: -0.657%.

As for `COc1ccccc1OP(C)(=O)Nc1ccc(C)cc1C` (stereo unspecified), the growth rescue was inactive: -0.94%.

For `O=[N+]([O-])c1cc([N+](=O)[O-])c(Nc2ccccn2)c([N+](=O)[O-])c1`, the growth rescue was inactive: 2.53%.

Regarding `Cc1c(NP(C)(=O)Oc2ccc(C(C)C)cc2)c(=O)n(-c2ccccc2)n1C` (stereo unspecified), the growth rescue was inactive: -0.703%.

For the compound `CN(C)CCOC(=O)C(O)(c1ccccc1)C1CCCC1` (stereo unspecified), the growth rescue is inactive: -1.33%.

`COc1ccccc1OP(C)(=O)Nc1ccc(Br)cc1` (stereo unspecified): the growth rescue is inactive: -0.446%.

Turning to `CC1=CC2OC3CC4OC(=O)C=CC=CC(C(C)O)OCC(O)C5(C)OC5C(=O)OCC2(CC1O)C4(C)C31CO1` (stereo unspecified), the growth rescue is inactive: -1.36%.

Regarding `CC(=O)OC1C(=O)OCC23CCC4(C)OC4C2OC2CC(OC(=O)C=CC=CC(=O)OCCC1C)C3(C)C21CO1` (stereo unspecified), the growth rescue was active: 536%.

For `CP(=O)(OCCOc1ccccc1)OCCOc1ccccc1`, the growth rescue was inactive: -1.31%.

In the case of `CP(=O)(Nc1ccc(Cl)cc1Cl)Oc1ccccc1` (stereo unspecified), the growth rescue was inactive: -0.927%.

For `CCCCCCCCCCCCCCCC1C[N+](C)(C)CCOP(C)(=O)O1` (stereo unspecified), the growth rescue was active: 197%.

On to `COc1ccc(OP(C)(=O)Nc2ccccc2Br)cc1` (stereo unspecified), for which the growth rescue is inactive: -0.844%.

Take `COc1ccccc1OP(C)(=O)Nc1ccc(C)c(C)c1` (stereo unspecified): the growth rescue was inactive: -0.0595%.

Take `O=C1C(O)=C([N+](=O)[O-])C(=O)C(O)=C1[N+](=O)[O-]`: the growth rescue is inactive: 0.0395%.

With `CC(=O)O[C@H]1C[C@@H]2OC3C=C(C)CCC3(C)[C@@]1(C)[C@@]21CO1` (stereo partly specified), the growth rescue is inactive: 5.05%.

For `Cc1cc(C)cc(OP(C)(=O)Nc2cccc(C(F)(F)F)c2)c1` (stereo unspecified), the growth rescue is inactive: 1.12%.
